Measured values from several laboratories, pooled; numbers as filed in NIAID ChemDB.

Shared fields: tests in culture; organism: HIV-2; method: RT activity; endpoint: EC50

ECn is the concentration giving n% inhibition of infection, replication or growth.

Cc1ccnc2c1NC(=O)c1cccnc1N2C1CC1 ; cells: PBMC ; strain: ROD ; value: >20 µM
CCc1nc2ccccn2c1C(=O)c1ccco1 ; cells: PBMC ; strain: 194 ; value: >100 µM
Cc1cn([C@H]2C=C[C@@H](COC(=O)CNC(=O)C(=O)/C=C(\O)c3cc(OCc4ccccc4)cc(OCc4ccccc4)c3)O2)c(=O)[nH]c1=O ; cells: PBMC ; strain: D194 ; value: 4.2 µM
CSc1nc(N)c2ncn([C@H]3C=C[C@@H](OCP(=O)(O)O)O3)c2n1 ; cells: MT-4 ; strain: ROD ; value: 31.9 µg/mL
CC(C)(C)NC(=O)[C@@H]1C[C@@H]2CCCC[C@@H]2CN1C[C@@H](O)[C@H](Cc1ccccc1)NC(=O)[C@H](CC(N)=O)NC(=O)c1ccc2ccccc2n1 ; cells: CEM + CEM-SS ; strain: ROD ; value: 0.002 µM
Cc1ccnc2c1NC(=O)c1cccnc1N2C1CC1 ; cells: MT-4 ; strain: ROD ; value: >4 µg/mL
CC(C)(C)NC(=O)[C@@H]1C[C@@H]2CCCC[C@@H]2CN1C[C@@H](O)[C@H](Cc1ccccc1)NC(=O)[C@H](CC(N)=O)NC(=O)c1ccc2ccccc2n1 ; cells: PBMC ; strain: ROD ; value: 0.01 µM
Nc1nc(=O)n([C@@H]2CS[C@H](CO)O2)cc1F ; cells: PBMC ; strain: ROD-2 ; value: 0.0007 µM
CCc1nc2ccccn2c1C(=O)c1cccs1 ; cells: PBMC ; strain: ROD ; value: >100 µM
Cc1cn([C@H]2C[C@H](N=[N+]=[N-])[C@@H](CO)O2)c(=O)[nH]c1=O ; cells: PBMC ; strain: D194 ; value: 0.011 µM
CCc1nc2sccn2c1C(=O)c1ccco1 ; cells: PBMC ; strain: ROD ; value: >100 µM
CNc1nc(N)c2ncn([C@H]3C=C[C@@H](OCP(=O)(O)O)O3)c2n1 ; cells: MT-4 ; strain: ROD ; value: >125 µg/mL
Cc1cn([C@H]2C=C[C@@H](COC(=O)CCNC(=O)C(=O)/C=C(\O)c3cccn3Cc3ccc(F)cc3)O2)c(=O)[nH]c1=O ; cells: PBMC ; strain: D194 ; value: 4.4 µM
Cc1cn([C@H]2C[C@H](N=[N+]=[N-])[C@@H](CO)O2)c(=O)[nH]c1=O ; cells: PBMC ; strain: ROD ; value: 0.005 µM
Cc1cn([C@H]2C[C@H](N=[N+]=[N-])[C@@H](CO)O2)c(=O)[nH]c1=O ; cells: MT-4 ; strain: ROD ; value: 0.0018 µg/mL
CCOCn1c([Se]c2ccccc2)cc(=O)[nH]c1=O ; cells: PBMC ; strain: ROD ; value: 14.8 µM
CNc1nc(NC)c2ncn([C@H]3C=C[C@@H](OCP(=O)(O)O)O3)c2n1 ; cells: MT-4 ; strain: ROD ; value: >125 µg/mL
CCOCn1c([Se]c2ccccc2)c(CC)c(=O)[nH]c1=O ; cells: PBMC ; strain: ROD ; value: 14.6 µM

For reference, 2 entries again:

Cc1ccnc2c1NC(=O)c1cccnc1N2C1CC1 ; cells: PBMC ; strain: ROD ; value: >20 µM
CCc1nc2sccn2c1C(=O)c1ccco1 ; cells: PBMC ; strain: ROD ; value: >100 µM

Lines come from different laboratories, so protocols vary.